Results on ten substances are retold here after US5492896A (Bayer Aktiengesellschaft, priority 1993, dated 1996).

This series is described as follows: general procedure: solution-phase peptide synthesis.
Setting [1] is: late stage modification step, hydrofluoride.
[2] abbreviates: late stage modification step, hydrofluoride (after HF deprotection).
[3] abbreviates: coupling step, hydrofluoride (after HF deprotection).

“(2 S)-2-{Nα -[((2S)-1-Hydroxy-3-phenyl-prop-2-yl)aminocarbonyl]-S-arginyl-S-valinyl}amino-3-phenyl-propan-1-ol hydrofluoride” displayed a step yield under setting [1] of 61%.
On to “(2S )-2-{N60 -[((1S )-1-Carboxy-2-phenyl-ethyl)aminocarbonyl]-N^G -(4-methyl-phenylsulphonyl)-S-arginyl-S-valinyl}amino-3-phenyl-propan-1-ol”, for which, under setting [2], the step yield is recorded as 85%.
Turning to “(2S )-2-{Nα -[((1S )-1-Methoxycarbonyl-2 -phenyl-ethyl)aminocarbonyl]-N^G -(4-methoxy-phenylsulphonyl)-S-arginyl-S-valinyl}amino-3-phenyl-propan-1-o”, the step yield under setting [3] is 88%.
For “(2S)-2-{Nα -[((1S)-1-Carboxy-2-phenyl-ethyl)aminocarbonyl]-S-arginyl-S-valinyl}amino- 3-phenyl-propan-1-ol hydrofluoride”, the step yield under setting [1] is reported as 94%.
As to “(2S)-2-{Nα -[((1S)-1-Methoxycarbonyl-2-phenyl-ethyl)aminocarbonyl]-N^G -(4-methyl-phenylsulphonyl)-S-arginyl-S-valinyl}amino-3-phenyl-propan-1-al”, the step yield is, setting by setting: (late stage modification step, hydrofluoride (after HF deprotection), run 1) 36%; (late stage modification step, hydrofluoride (after HF deprotection), run 2) 30%.
Consider “(2S)-2-{Nα -[((1S)-1-Methoxycarbonyl-2-phenyl-ethyl)aminocarbonyl]-S-arginyl-S-valinyl}amino-3-phenyl-propan-1-ol hydrofluoride”, for which the step yield under setting [1] was 82%.
Consider “(2S)-2-{Nα -[((2S)-1-Hydroxy-3-phenyl-prop-2-yl)aminocarbonyl]-N^G -(4-methyl-phenylsulphonyl)-S-arginyl-S-valinyl}-amino-3-phenyl-propan-1-ol”, for which the step yield under setting [2] stood at 57%.
Under setting [2], “N60 -[((1S)-1-Carboxy-2-phenyl-ethyl)aminocarbonyl]-N^G -(4-methyl-phenylsulphonyl)-S-arginyl-S-valinyl-S-phenylalanine” returned a step yield of 78%.
“N60 -[((1S)-1-Methoxycarbonyl-2-phenyl-ethyl)aminocarbonyl]-N^G -(4-methyl-phenylsulphonyl)-S-arginyl-S-valinyl-S-phenylalanine methyl ester” registered a step yield under setting [3] of 85%.
The substance “Nα -[((1S)- 1-Methoxycarbonyl-2-phenyl-ethyl)aminocarbonyl]-S-arginyl-S-valinyl-S-phenylalanine methyl ester hydrofluoride” yielded a step yield under setting [1] of 79%.
